Results of unrelated studies side by side (data: NIAID ChemDB).

All rows: whole-cell or culture tests; agent: Mycobacterium avium complex; read-out: MIC

Conditions beyond the fields shown may differ between rows. Two numbers with a dash give a range or band.

NNC(=O)c1ccncc1 ; strain: 30 isolates ; result: 32 µg/mL
CC[C@@H](CO)NCCN[C@@H](CC)CO ; strain: MO-1 ; result: 16 µg/mL
CN[C@@H]1[C@H](O[C@H]2[C@H](O[C@H]3[C@H](O)[C@@H](O)[C@H](N=C(N)N)[C@@H](O)[C@@H]3N=C(N)N)O[C@@H](C)[C@]2(O)CO)O[C@@H](CO)[C@H](O)[C@H]1O ; strain: 32 isolates ; result: 5 µg/mL
CCn1cc(C(=O)O)c(=O)c2cc(F)c(N3CCNC(C)C3)c(F)c21 ; strain: 4 strains ; result: 2–8 µg/mL
CO[C@H]1/C=C/O[C@@]2(C)Oc3c(C)c(O)c4c(=O)c(c5oc6cc(N7CCN(CC(C)C)CC7)cc(=O)c6nc5c4c3=C2O)NC(=O)/C(C)=C\C=C\[C@H](C)[C@H](O)[C@@H](C)[C@@H](O)[C@@H](C)[C@H](OC(C)=O)[C@@H]1C ; strain: N-966 ; result: 0.12 µg/mL
O=C(Nc1ccc(C(=O)O)c(O)c1)c1ccccc1 ; strain: 32 isolates ; result: 10 µg/mL
CC1COc2c(N3CCN(C)CC3)c(F)cc3c(=O)c(C(=O)O)cn1c23 ; strain: CIPT 14031005 ; result: 20 µg/mL
CC[C@H]1OC(=O)[C@H](C)[C@@H](O[C@H]2C[C@@](C)(OC)[C@@H](O)[C@H](C)O2)[C@H](C)[C@@H](O[C@@H]2O[C@H](C)C[C@H](N(C)C)[C@H]2O)[C@](C)(OC)C[C@@H](C)C(=O)[C@H](C)[C@@H](O)[C@]1(C)O ; strain: 101 ; result: 16 µg/mL
Clc1ccccc1C(c1ccccc1)(c1ccccc1)n1ccnc1 ; strain: LPR ; result: 0.03 µg/mL
CO[C@H]1/C=C/O[C@@]2(C)Oc3c(C)c(O)c4c(O)c(c5c(c4c3C2=O)NC2(CCN(CC(C)C)CC2)N=5)=NC(=O)/C(C)=C\C=C\[C@H](C)[C@H](O)[C@@H](C)[C@@H](O)[C@@H](C)[C@H](OC(C)=O)[C@@H]1C ; strain: 32 isolates ; result: 1 µg/mL
CCC(C)N1CCN(c2cc(=O)c3nc4c(oc3c2)c2c(=O)c3c(O)c(C)c5c(c34)=C(O)[C@@](C)(O/C=C/[C@H](OC)[C@@H](C)[C@@H](OC(C)=O)[C@H](C)[C@H](O)[C@H](C)[C@@H](O)[C@@H](C)/C=C/C=C(/C)C(=O)N2)O5)CC1 ; strain: 31F093T ; result: 0.035 µg/mL
CC[C@@H](CO)NCCN[C@@H](CC)CO ; strain: 3350-4 ; result: 7.5 µg/mL
CC[C@@H](CO)NCCN[C@@H](CC)CO ; strain: N-966 ; result: 32 µg/mL
CC1CN(c2cc3c(cc2F)c(=O)c(C(=O)O)cn3-c2ccc(F)cc2F)CCN1 ; strain: 3217 ; result: 4 µg/mL
CC[C@@H](CO)NCCN[C@@H](CC)CO ; result: >2 µg/mL
NCC[C@H](O)C(=O)N[C@@H]1C[C@H](N)[C@@H](O[C@H]2O[C@H](CN)[C@@H](O)[C@H](O)[C@H]2O)[C@H](O)[C@H]1O[C@H]1O[C@H](CO)[C@@H](O)[C@H](N)[C@H]1O ; strain: MO-1 ; result: 32 µg/mL
CC(C)N=c1cc2n(-c3ccc(Cl)cc3)c3ccccc3nc-2cc1Nc1ccc(Cl)cc1 ; strain: 32 isolates ; result: 2 µg/mL
CO[C@H]1/C=C/O[C@@]2(C)Oc3c(C)c(O)c4c(O)c(c(/C=N/N5CCN(C6CCCC6)CC5)c(O)c4c3C2=O)NC(=O)/C(C)=C\C=C\[C@H](C)[C@H](O)[C@@H](C)[C@@H](O)[C@@H](C)[C@H](OC(C)=O)[C@@H]1C ; strain: Serotype 2 ; result: >40 µg/mL
CO[C@H]1/C=C/O[C@@]2(C)Oc3c(C)c(O)c4c(=O)c(c5oc6cc(N7CCN(CC(C)C)CC7)cc(=O)c6nc5c4c3=C2O)NC(=O)/C(C)=C\C=C\[C@H](C)[C@H](O)[C@@H](C)[C@@H](O)[C@@H](C)[C@H](OC(C)=O)[C@@H]1C ; strain: 31F093T ; result: 0.07 µg/mL
CN[C@@H]1[C@@H](O)[C@@H](O[C@@H]2[C@@H](O)[C@H](O[C@H]3O[C@H](CN)CC[C@H]3N)[C@@H](N)C[C@H]2N)OC[C@]1(C)O ; strain: 101 ; result: >64 µg/mL
CO[C@H]1/C=C/O[C@@]2(C)Oc3c(C)c(O)c4c(O)c(c5c(c4c3C2=O)NC2(CCN(CC(C)C)CC2)N=5)=NC(=O)/C(C)=C\C=C\[C@H](C)[C@H](O)[C@@H](C)[C@@H](O)[C@@H](C)[C@H](OC(C)=O)[C@@H]1C ; strain: 30 isolates ; result: 0.03–2 µg/mL
CCn1cc(C(=O)O)c(=O)c2cc(F)c(N3CCN(C)CC3)cc21 ; strain: CIPT 140310031 ; result: 20 µg/mL
CO[C@H]1/C=C/O[C@@]2(C)Oc3c(C)c(O)c4c(O)c(c(/C=N/N5CCN(C)CC5)c(O)c4c3C2=O)NC(=O)/C(C)=C\C=C\[C@H](C)[C@H](O)[C@@H](C)[C@@H](O)[C@@H](C)[C@H](OC(C)=O)[C@@H]1C ; strain: N-260 ; result: 3.13 µg/mL
NCCC[C@H](N)CC(=O)N[C@H]1CNC(=O)[C@H]([C@H]2C[C@H](O)NC(N)=N2)NC(=O)/C(=C/NC(N)=O)NC(=O)[C@H](CO)NC(=O)[C@H](CO)NC1=O ; strain: 32 isolates ; result: 8 µg/mL
CC[C@H]1OC(=O)[C@H](C)[C@@H](O[C@H]2C[C@@](C)(OC)[C@@H](O)[C@H](C)O2)[C@H](C)[C@@H](O[C@@H]2O[C@H](C)C[C@H](N(C)C)[C@H]2O)[C@](C)(O)C[C@@H](C)/C(=N\OCOCCOC)[C@H](C)[C@@H](O)[C@]1(C)O ; strain: 30 isolates ; result: 2–16 µg/mL
O=C1/C(=C\c2ccc(Cl)cc2)N=C(c2ccccc2)N1C(=S)N/N=C/c1ccccc1 ; strain: NJ211 ; result: 0.25 µg/mL
NNC(=O)c1ccncc1 ; strain: 101 ; result: 64 µg/mL
NC[C@H]1O[C@H](O[C@H]2[C@H](O)[C@@H](O[C@H]3O[C@H](CO)[C@@H](O)[C@H](N)[C@H]3O)[C@H](N)C[C@@H]2N)[C@H](O)[C@@H](O)[C@@H]1O ; strain: N-314 (HIV-) ; result: 4 µg/mL
CO[C@H]1/C=C/O[C@@]2(C)Oc3c(C)c(O)c4c(O)c(c5c(c4c3C2=O)NC2(CCN(CC(C)C)CC2)N=5)=NC(=O)/C(C)=C\C=C\[C@H](C)[C@H](O)[C@@H](C)[C@@H](O)[C@@H](C)[C@H](OC(C)=O)[C@@H]1C ; strain: 101 ; result: 2 µg/mL
C[C@@H]1CN(c2c(F)c(N)c3c(=O)c(C(=O)O)cn(C4CC4)c3c2F)C[C@H](C)N1 ; strain: 101 ; result: 0.25 µg/mL
CO[C@H]1/C=C/O[C@@]2(C)Oc3c(C)c(O)c4c(O)c(c(/C=N/N5CCN(C6CCCC6)CC5)c(O)c4c3C2=O)NC(=O)/C(C)=C\C=C\[C@H](C)[C@H](O)[C@@H](C)[C@@H](O)[C@@H](C)[C@H](OC(C)=O)[C@@H]1C ; strain: 101 ; result: 4 µg/mL
CO[C@H]1/C=C/O[C@@]2(C)Oc3c(C)c(O)c4c(=O)c(c5oc6cc(N7CCN(C(C)C)CC7)cc(=O)c6nc5c4c3=C2O)NC(=O)/C(C)=C\C=C\[C@H](C)[C@H](O)[C@@H](C)[C@@H](O)[C@@H](C)[C@H](OC(C)=O)[C@@H]1C ; strain: 31F093T ; result: 0.07 µg/mL
O=C(NCN1CCOCC1)c1cnccn1 ; strain: 32 isolates ; result: 15 µg/mL
N[C@@H]1CN(c2c(F)cc3c(=O)c(C(=O)O)cn([C@@H]4C[C@@H]4F)c3c2Cl)CC12CC2 ; strain: N-966 ; result: 4 µg/mL
CC[C@@H](CO)NCCN[C@@H](CC)CO ; strain: 3009-4 ; result: 3.8 µg/mL
CN[C@@H]1[C@H](O[C@H]2[C@H](O[C@H]3[C@H](O)[C@@H](O)[C@H](N=C(N)N)[C@@H](O)[C@@H]3N=C(N)N)O[C@@H](C)[C@]2(O)C=O)O[C@@H](CO)[C@H](O)[C@H]1O ; strain: Isolate C-48 ; result: 400 µg/mL
CC[C@@H](CO)NCCN[C@@H](CC)CO ; strain: 3215 ; result: 16 µg/mL
CC[C@@H](CO)NCCN[C@@H](CC)CO ; strain: W6506 ; result: 8 µg/mL
CC1COc2c(N3CCN(C)CC3)c(F)cc3c(=O)c(C(=O)O)cn1c23 ; strain: 30 isolates ; result: 64 µg/mL
CCCCCCCCO[C@@H]1OC(C)[C@H](O[C@@H]2O[C@@H]([C@@H](COC(C)=O)OC(C)=O)[C@H](OC(C)=O)[C@H]2OC(C)=O)C(O)C1O ; strain: NJ3404 ; result: >128 µg/mL
NC[C@H]1O[C@H](O[C@H]2[C@H](O)[C@@H](O[C@H]3O[C@H](CO)[C@@H](O)[C@H](N)[C@H]3O)[C@H](N)C[C@@H]2N)[C@H](N)C[C@@H]1O ; strain: 101 ; result: >64 µg/mL
NCC[C@H](O)C(=O)N[C@@H]1C[C@H](N)[C@@H](O[C@H]2O[C@H](CN)[C@@H](O)[C@H](O)[C@H]2O)[C@H](O)[C@H]1O[C@H]1O[C@H](CO)[C@@H](O)[C@H](N)[C@H]1O ; strain: 32 isolates ; result: 12 µg/mL
CCn1cc(C(=O)O)c(=O)c2cc(F)c(N3CCNCC3)nc21 ; strain: 2 strains ; result: >5 µg/mL
CO[C@H]1/C=C/O[C@@]2(C)Oc3c(C)c(O)c4c(O)c(c(/C=N/N5CCN(C)CC5)c(O)c4c3C2=O)NC(=O)/C(C)=C\C=C\[C@H](C)[C@H](O)[C@@H](C)[C@@H](O)[C@@H](C)[C@H](OC(C)=O)[C@@H]1C ; result: >25 µg/mL
NC[C@@H]1O[C@H](O[C@H]2[C@@H](O)[C@H](O[C@@H]3[C@@H](O)[C@H](N)C[C@H](N)[C@H]3O[C@H]3O[C@H](CN)[C@@H](O)[C@H](O)[C@H]3N)O[C@@H]2CO)[C@H](N)[C@@H](O)[C@@H]1O ; strain: 32 isolates ; result: 8 µg/mL
O=C(O)[C@H]1/C(=C/CO)O[C@@H]2CC(=O)N21 ; strain: 30 isolates ; result: >128 µg/mL
NCC[C@H](O)C(=O)N[C@@H]1C[C@H](N)[C@@H](O[C@H]2O[C@H](CN)[C@@H](O)[C@H](O)[C@H]2O)[C@H](O)[C@H]1O[C@H]1O[C@H](CO)[C@@H](O)[C@H](N)[C@H]1O ; strain: 101 ; result: 1 µg/mL
NC1CCN(c2nc3c(cc2F)c(=O)c(C(=O)O)cn3-c2ccc(F)cc2F)C1 ; strain: ATCC 35718 ; result: >8 µg/mL
COc1ccc(NS(=O)(=O)c2ccc(N)cc2)nn1 ; strain: 30 isolates ; result: 64 µg/mL
CO[C@H]1/C=C/O[C@@]2(C)Oc3c(C)c(O)c4c(O)c(c(/C=N/N5CCN(C/C=C/c6ccccc6)CC5)c(O)c4c3C2=O)NC(=O)/C(C)=C\C=C\[C@H](C)[C@H](O)[C@@H](C)[C@@H](O)[C@@H](C)[C@H](OC(C)=O)[C@@H]1C ; strain: SK40 ; result: 0.06 µg/mL
C[C@@H]1CN(c2c(F)c(N)c3c(=O)c(C(=O)O)cn(C4CC4)c3c2F)C[C@H](C)N1 ; strain: 32 isolates ; result: 4 µg/mL

A second listing of 3 rows from above:

structure	strain	result
NCC[C@H](O)C(=O)N[C@@H]1C[C@H](N)[C@@H](O[C@H]2O[C@H](CN)[C@@H](O)[C@H](O)[C@H]2O)[C@H](O)[C@H]1O[C@H]1O[C@H](CO)[C@@H](O)[C@H](N)[C@H]1O	32 isolates	12 µg/mL
NC[C@H]1O[C@H](O[C@H]2[C@H](O)[C@@H](O[C@H]3O[C@H](CO)[C@@H](O)[C@H](N)[C@H]3O)[C@H](N)C[C@@H]2N)[C@H](O)[C@@H](O)[C@@H]1O	N-314 (HIV-)	4 µg/mL
CN[C@@H]1[C@H](O[C@H]2[C@H](O[C@H]3[C@H](O)[C@@H](O)[C@H](N=C(N)N)[C@@H](O)[C@@H]3N=C(N)N)O[C@@H](C)[C@]2(O)C=O)O[C@@H](CO)[C@H](O)[C@H]1O	Isolate C-48	400 µg/mL